The target of the series is T1, 6xHis-DnaA (Mtb) (Mycobacterium tuberculosis) (UniProt P9WNW3).
T1 sequence: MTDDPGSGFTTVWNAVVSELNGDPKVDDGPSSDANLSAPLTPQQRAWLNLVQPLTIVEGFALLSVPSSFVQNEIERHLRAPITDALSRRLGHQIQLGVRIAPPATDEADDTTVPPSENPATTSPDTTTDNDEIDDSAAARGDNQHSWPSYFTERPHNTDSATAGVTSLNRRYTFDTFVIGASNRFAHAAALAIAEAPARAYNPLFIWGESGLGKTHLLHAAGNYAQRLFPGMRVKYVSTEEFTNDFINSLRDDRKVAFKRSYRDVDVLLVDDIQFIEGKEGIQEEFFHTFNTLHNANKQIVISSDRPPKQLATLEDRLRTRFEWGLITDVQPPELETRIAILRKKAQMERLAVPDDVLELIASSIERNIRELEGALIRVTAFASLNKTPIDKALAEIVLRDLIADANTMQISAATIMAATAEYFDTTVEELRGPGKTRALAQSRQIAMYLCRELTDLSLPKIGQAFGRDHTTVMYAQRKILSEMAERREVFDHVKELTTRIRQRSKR
Put plainly: EMSA. Particulars: recombinant protein; protein details: N-term 6xHis, 3C protease site; label: IRDye 800 at 5' end of forward primer; probe letters rebuilt from the primers and the genome. In general terms: Mobility shift assays separate free from complexed probe on a gel.

The exact form of at least one protein or probe is not confirmed.

One may read the Kd as the constant that tells how readily two partners part at equilibrium.

In the case of “CCCTACACGACGCTCTTCCCATCCGTCAGCGCTCCAAGCGCTAGCACGGCGTGTTCTTCCGACAACGTTCTTAAAAAAACTTCTCTCTCCCAGGTCACACCAGTCACAGAGATTGGCTGTGAGTGTCGCTGTGCACAAACCGCGCACAGACTCATACAGTCCCGGCGGTTCCGTTCACAACCCACGCCTCATCCCCACCGACCCAACACACACCCCACAGTCATCGCCACCGTCATCCACAACTCCGACCGACGTCGACCTGCACCAAGACCAGACTGTCCCCAAACTGCACACCCTCTAATACTGTTACCGAGATTTCTTCGTCGTTTGTTCTTGGAAAGACAGCGCTGGGGATCGTTCGCTGGATACCACCCGCATAACTGGCTCGTCGCGGTGGGTCAGAGGTCAATGATGAACTTTCAAGTTGACGTGAGAAGCTCTACGGTTGTTGTTCGACTGCTGTTGCGGCCGTCGTGGCGGGTCACGCGTCATGGGCATTCGTCGTTGGCAGTCCCCACGCTAGCGGGGCGCTAGCCACGGGATCGAACTCATCGTGAGGTGAAAGGGCGCAA (double strand) [oriC fragment]”, the dissociation constant (Kd) turned out to be 70 nM.

Values taken from publication PMC7738170.
